Results of unrelated studies side by side (data: NIAID ChemDB).

Shared fields: growth or infection tests; agent: HIV-1; cell line: PBMC; read-out: EC50

ECn is the concentration giving n% inhibition of infection, replication or growth.

smiles	strain or isolate	mutations	method	conditions	value
CCCCN1C(=O)C(CC2CCCCC2)NC(=O)C12CCN(Cc1cnc(-c3ccccc3)[nH]1)CC2	NL4-3		p24		>1 µM
CC(C)n1nc(-c2ccc3oc(N)nc3c2)c2c(N)ncnc21	93BR029		p24 / ELISA		0.00473 µM
C=C(C)[C@]12C[C@@H](COC(=O)c3ccccc3)[C@@]34O[C@]5(O[C@@H]1[C@@H]3[C@@H]1O[C@]1(CO)[C@@H](O)[C@@]1(O)[C@H]4[C@H]([C@H](C)[C@@H]1OC(=O)c1ccccc1)[C@H](C)CCCCCC[C@H]5O)O2	NL4-3		p24 / ELISA		>1 µM
CC(C)CN(C[C@@H](O)[C@H](Cc1ccccc1)NC(=O)O[C@H]1CCOC1)S(=O)(=O)c1ccc(N)cc1	ERS104pre	L63P			0.0295 µM
Cc1cn([C@H]2C=C[C@@H](CO)O2)c(=O)[nH]c1=O	TM	MDR	p24		0.05 µM
CC(C)Nc1cccnc1N1CCN(C(=O)c2cc3cc(NS(C)(=O)=O)ccc3[nH]2)CC1	Group O isolate		RT activity		15.5 µM
O=c1[nH]cnc2c1ncn2[C@H]1CC[C@@H](CO)O1	IIIB		p24		<7.5 µM
Nc1ccn([C@H]2CC[C@@H](CO)O2)c(=O)n1	Isolate 2441		p24		0.08 µM
CO[P@](=O)(c1cc(C)cc(/C=C/C#N)c1)c1c(C(N)=O)[nH]c2ccc(Cl)c(F)c12	WT (BH10)				0.0004 µM
Fc1ccccc1CCNC(=S)Nc1ccc(Br)cn1	RT-Y181C K103N A17 variant NNRTI-resistant		p24		35 µM
CCCCN1C(=O)C(CC2CCCCC2)NC(=O)C12CCN(Cc1ccc3c(c1)OCCO3)CC2	JSL	MDR	p24		0.06 µM
Cc1cn([C@H]2C[C@H](N=[N+]=[N-])[C@@H](CO)O2)c(=O)[nH]c1=O	Clinical isolate	A114S	single cycle / fluorescence		0.00271 µM
Oc1ccc(/C=C/c2cc(O)cc(O)c2)cc1	EJC-X1		p24	clinical isolate	>10 µM
Cc1c(O)cccc1C(=O)N[C@@H](CSc1ccccc1)[C@H](O)CN1C[C@H]2CCCC[C@H]2C[C@H]1C(=O)NC(C)(C)C	MOKW		p24		0.014 µM
Cc1cc(C)c(Nc2ccnc(Nc3ccc(C#N)cc3)n2)c(C)c1	35764-2		absorbance		0.0016 µM
CC(C)(C)NC(=O)[C@@H]1C[C@@H]2CCCC[C@@H]2CN1C[C@@H](O)[C@H](Cc1ccccc1)NC(=O)[C@H](CC(N)=O)NC(=O)c1ccc2ccccc2n1	Group O isolate		RT activity		0.015 µM
Cc1csc(NC(=S)N[C@H](C)c2ccccc2)n1	RT-Y181C K103N A17 variant NNRTI-resistant		p24		0.19 µM
Cc1cn([C@H]2C[C@H](N=[N+]=[N-])[C@@H](CO)O2)c(=O)[nH]c1=O	CLADE B		cytopathic effect / XTT	clinical isolate	0.01 µM
COC(=O)N[C@H](C(=O)N[C@@H](Cc1ccccc1)[C@@H](O)CN(Cc1ccc(-c2ccccn2)cc1)NC(=O)[C@@H](NC(=O)OC)C(C)(C)C)C(C)(C)C	Clinical isolate	L10I I15V K20R L24I M36I M46L I54V I62V L63P K70Q V82A L89M		clinical isolate, multidrug-resistant	0.43 µM
O=c1[nH]cnc2c1ncn2[C@H]1CC[C@@H](CO)O1	RT-M184V XM-M184V	RT-M184V	p24		<25 µM
Cc1cn([C@H]2C[C@H](N=[N+]=[N-])[C@@H](CO)O2)c(=O)[nH]c1=O	BCF06	RT-A98G K103R			0.03 µM
Cc1cc(C#N)cc(C)c1Oc1nc(Nc2ccc(C#N)cc2)nc(N)c1Br	7324-1		absorbance		0.001 µM
CC(C)CN(C[C@@H](O)[C@H](Cc1ccccc1)NC(=O)O[C@H]1CO[C@H]2OCC(F)(F)[C@H]21)S(=O)(=O)c1ccc(N)cc1	Clinical isolate	L10I K14R L33I M36I M46I F53I K55R I62V L63P A71V G73S V82A L90M I93L		clinical isolate, multidrug-resistant	0.011 µM
CCCCN1C(=O)C(CC(C)C)NC(=O)C12CCN(CCCCCCc1ccccc1)CC2	BaL		p24		0.54 µM
c1cc(CN2CCCNCCNCCCNCC2)ccc1CN1CCCNCCNCCCNCC1	JR-FL CLADE B R5		p24		>0.5 µM
CC(C)(C)OC(=O)N[C@@H](Cc1ccccc1)[C@H](O)CNC[C@@H](O)[C@H](Cc1ccc(OCC(=O)N2CCOCC2)cc1)NC(=O)OC(C)(C)C	A018A		p24		0.04 µM
CC(C)[C@H](NC(=O)c1ccc2ccccc2n1)C(=O)N[C@@H](Cc1ccccc1)[C@H](O)CN1CC[C@@H](OCc2ccncc2)C[C@H]1C(=O)NC(C)(C)C	VR949		p24 / ELISA / antigen		0.011 µM
Cc1cn([C@H]2C[C@H](N=[N+]=[N-])[C@@H](CO)O2)c(=O)[nH]c1=O	9451 CLADE C CLADE C		p24		0.001 µM
CC(C)=CCN1Cc2cc(Cl)cc3[nH]c(=S)n(c23)C[C@@H]1C	BCF03	RT-A98G Y181C			>6.25 µM
CC(C)c1cc2c(c(O)c1O)[C@@]1(C(=O)O)CCCC(C)(C)C1CC2	BaL				0.025 µM
Cc1cn([C@H]2C[C@H](N=[N+]=[N-])[C@@H](CO)O2)c(=O)[nH]c1=O	RT-M184V XM-M184V	RT-M184V	p24		<0.02 µM
CCC[C@@]1(CCc2ccccc2)CC(O)=C([C@H](CC)c2cccc(NS(=O)(=O)c3ccc(C(F)(F)F)cn3)c2)C(=O)O1	Isolate N. Amer 5		p24		<0.17 µM
Cc1ccnc2c1NC(=O)c1cccnc1N2C1CC1	BCF07	RT-A98G V106I Y181C			17 µM
Cc1cc(=O)c2ccc(N=C=S)cc2o1	NL4-3		p24 / ELISA		0.188 µM

An empty or dashed field is not shown. Lines come from different laboratories, so protocols vary.